Experiments:
[1] = target: Acetylcholine receptor (Torpedo californica) (UniProt P02710+P02712+P02718+P02714); assay: Potency relative to PHT in torpedo electroplax membranes ([3H]MCC binding)
[2] = target: Neuronal acetylcholine receptor (Rattus norvegicus) (UniProt P04757+P09483+P12389+P12390+P12392+P43144+Q9JLB5+P12391+P43143+P20420+Q05941); assay: Potency relative to PHT in rat brain membranes ([3H]MCC binding)

Protein sequences, listed by entry. Tags and fused reporters are not part of them. Lines headed by an entry give the natural chain unless they say otherwise; changes in a name come on top.
UniProt P02710: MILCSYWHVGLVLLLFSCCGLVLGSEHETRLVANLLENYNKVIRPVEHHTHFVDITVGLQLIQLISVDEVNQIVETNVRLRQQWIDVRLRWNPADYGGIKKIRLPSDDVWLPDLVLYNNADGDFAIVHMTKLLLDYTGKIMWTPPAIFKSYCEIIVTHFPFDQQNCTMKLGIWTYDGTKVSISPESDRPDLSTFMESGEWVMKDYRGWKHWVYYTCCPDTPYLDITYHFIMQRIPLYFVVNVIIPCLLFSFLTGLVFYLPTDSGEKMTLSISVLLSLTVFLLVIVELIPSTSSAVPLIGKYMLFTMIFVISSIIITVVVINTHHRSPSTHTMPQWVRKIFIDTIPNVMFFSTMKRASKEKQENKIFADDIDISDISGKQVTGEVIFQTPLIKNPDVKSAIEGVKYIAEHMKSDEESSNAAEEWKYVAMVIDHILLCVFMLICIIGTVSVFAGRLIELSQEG
UniProt P02712: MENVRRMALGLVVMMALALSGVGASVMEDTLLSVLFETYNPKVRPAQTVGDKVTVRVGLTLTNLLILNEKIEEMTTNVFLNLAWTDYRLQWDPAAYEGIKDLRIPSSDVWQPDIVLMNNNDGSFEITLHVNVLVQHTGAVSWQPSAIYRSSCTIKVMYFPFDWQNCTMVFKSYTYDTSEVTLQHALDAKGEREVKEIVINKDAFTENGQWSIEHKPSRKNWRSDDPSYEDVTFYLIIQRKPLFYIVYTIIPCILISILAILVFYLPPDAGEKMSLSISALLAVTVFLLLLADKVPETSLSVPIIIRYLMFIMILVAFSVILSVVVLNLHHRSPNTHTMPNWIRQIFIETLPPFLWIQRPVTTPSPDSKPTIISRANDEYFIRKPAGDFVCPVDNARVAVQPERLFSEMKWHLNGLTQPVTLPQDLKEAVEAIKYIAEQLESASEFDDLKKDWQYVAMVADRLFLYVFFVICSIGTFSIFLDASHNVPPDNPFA
UniProt P02718: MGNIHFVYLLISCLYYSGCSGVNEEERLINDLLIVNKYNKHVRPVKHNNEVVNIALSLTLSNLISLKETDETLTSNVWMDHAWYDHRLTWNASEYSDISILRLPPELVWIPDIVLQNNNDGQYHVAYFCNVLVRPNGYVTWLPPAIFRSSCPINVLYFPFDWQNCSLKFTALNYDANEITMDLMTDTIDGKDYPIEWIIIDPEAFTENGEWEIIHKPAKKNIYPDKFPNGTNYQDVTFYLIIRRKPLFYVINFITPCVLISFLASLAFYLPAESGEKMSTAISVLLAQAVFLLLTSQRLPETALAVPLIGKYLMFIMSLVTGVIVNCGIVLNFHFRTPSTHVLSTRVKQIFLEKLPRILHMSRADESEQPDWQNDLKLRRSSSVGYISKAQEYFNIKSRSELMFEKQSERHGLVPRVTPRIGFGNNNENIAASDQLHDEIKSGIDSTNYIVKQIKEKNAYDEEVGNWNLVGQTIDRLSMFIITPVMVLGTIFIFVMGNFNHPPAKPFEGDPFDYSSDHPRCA
UniProt P09483: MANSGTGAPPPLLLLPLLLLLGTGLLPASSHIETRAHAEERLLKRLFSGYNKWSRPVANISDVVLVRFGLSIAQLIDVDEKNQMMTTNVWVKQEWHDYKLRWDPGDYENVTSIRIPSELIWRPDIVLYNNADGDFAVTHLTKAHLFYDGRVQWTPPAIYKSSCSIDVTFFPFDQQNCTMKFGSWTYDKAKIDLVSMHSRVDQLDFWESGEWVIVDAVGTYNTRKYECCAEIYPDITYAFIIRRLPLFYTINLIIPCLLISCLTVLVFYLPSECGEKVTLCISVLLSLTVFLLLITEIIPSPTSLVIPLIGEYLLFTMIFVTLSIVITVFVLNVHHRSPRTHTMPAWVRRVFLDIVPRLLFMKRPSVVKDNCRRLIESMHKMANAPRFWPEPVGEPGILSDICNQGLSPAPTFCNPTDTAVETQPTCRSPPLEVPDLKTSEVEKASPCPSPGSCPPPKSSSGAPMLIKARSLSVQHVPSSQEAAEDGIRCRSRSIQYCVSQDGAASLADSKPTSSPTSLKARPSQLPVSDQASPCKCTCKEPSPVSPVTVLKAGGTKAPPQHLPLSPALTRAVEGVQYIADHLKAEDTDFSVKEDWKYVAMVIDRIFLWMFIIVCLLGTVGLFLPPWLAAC
UniProt P12389: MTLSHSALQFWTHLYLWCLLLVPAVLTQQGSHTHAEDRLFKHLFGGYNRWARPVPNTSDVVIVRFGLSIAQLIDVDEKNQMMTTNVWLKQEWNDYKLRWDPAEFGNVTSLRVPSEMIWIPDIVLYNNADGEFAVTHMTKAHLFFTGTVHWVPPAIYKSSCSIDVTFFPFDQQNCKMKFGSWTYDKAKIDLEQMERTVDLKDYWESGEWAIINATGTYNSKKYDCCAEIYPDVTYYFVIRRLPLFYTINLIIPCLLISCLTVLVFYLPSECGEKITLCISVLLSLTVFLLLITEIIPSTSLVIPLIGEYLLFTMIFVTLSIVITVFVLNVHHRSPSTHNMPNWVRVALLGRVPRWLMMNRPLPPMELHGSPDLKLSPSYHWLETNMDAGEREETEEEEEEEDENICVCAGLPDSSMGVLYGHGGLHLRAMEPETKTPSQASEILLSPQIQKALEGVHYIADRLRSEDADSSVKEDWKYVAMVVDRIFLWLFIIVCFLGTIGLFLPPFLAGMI
UniProt P12390: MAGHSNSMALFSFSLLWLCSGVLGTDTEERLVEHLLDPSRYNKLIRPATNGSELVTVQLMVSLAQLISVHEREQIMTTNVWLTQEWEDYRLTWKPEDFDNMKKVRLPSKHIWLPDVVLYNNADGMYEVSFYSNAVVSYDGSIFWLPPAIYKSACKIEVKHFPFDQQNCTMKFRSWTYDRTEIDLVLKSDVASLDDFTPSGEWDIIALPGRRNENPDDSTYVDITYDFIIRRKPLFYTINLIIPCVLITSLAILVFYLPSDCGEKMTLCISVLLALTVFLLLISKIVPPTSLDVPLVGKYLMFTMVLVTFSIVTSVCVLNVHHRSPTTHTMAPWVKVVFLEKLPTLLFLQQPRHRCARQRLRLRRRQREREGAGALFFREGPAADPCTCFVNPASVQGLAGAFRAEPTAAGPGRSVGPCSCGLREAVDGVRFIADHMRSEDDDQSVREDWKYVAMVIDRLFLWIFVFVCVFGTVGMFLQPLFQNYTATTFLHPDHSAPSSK
UniProt P12392: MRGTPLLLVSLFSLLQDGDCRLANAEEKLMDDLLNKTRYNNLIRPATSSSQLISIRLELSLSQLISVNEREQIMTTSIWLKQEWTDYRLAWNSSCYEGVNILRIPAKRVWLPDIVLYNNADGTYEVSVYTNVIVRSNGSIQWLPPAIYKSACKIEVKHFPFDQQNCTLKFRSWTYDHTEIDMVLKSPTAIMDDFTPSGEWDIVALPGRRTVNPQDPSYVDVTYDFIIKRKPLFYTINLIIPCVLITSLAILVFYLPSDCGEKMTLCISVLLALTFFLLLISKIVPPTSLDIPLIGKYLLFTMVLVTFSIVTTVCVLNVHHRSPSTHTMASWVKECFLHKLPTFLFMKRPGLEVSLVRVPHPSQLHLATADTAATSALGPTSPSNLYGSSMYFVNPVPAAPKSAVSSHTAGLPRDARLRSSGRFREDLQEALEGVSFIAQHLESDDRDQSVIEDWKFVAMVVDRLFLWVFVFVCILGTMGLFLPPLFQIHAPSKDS
UniProt P43144: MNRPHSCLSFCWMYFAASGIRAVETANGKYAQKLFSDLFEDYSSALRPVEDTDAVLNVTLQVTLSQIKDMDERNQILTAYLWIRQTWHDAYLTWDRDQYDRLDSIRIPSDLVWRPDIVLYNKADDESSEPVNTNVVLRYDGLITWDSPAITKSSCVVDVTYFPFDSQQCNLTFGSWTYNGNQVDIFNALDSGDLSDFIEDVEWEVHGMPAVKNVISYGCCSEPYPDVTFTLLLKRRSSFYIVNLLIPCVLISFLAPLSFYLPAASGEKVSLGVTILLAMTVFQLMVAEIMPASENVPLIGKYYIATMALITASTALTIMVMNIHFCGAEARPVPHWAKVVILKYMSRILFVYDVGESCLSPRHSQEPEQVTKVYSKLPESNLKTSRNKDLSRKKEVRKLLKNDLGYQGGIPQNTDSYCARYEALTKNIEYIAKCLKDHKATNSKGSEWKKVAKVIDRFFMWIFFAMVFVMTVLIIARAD
UniProt Q9JLB5: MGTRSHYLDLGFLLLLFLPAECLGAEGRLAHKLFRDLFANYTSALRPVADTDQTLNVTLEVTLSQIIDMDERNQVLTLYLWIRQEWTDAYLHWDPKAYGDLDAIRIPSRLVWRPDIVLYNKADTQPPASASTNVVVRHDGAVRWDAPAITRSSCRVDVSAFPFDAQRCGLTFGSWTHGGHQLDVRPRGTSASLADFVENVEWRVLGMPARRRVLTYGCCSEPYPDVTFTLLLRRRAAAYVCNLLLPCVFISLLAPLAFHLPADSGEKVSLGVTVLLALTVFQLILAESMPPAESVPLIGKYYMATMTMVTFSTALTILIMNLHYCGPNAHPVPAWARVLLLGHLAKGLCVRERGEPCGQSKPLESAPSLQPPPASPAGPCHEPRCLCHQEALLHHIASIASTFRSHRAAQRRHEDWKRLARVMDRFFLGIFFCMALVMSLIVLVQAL
UniProt P12391: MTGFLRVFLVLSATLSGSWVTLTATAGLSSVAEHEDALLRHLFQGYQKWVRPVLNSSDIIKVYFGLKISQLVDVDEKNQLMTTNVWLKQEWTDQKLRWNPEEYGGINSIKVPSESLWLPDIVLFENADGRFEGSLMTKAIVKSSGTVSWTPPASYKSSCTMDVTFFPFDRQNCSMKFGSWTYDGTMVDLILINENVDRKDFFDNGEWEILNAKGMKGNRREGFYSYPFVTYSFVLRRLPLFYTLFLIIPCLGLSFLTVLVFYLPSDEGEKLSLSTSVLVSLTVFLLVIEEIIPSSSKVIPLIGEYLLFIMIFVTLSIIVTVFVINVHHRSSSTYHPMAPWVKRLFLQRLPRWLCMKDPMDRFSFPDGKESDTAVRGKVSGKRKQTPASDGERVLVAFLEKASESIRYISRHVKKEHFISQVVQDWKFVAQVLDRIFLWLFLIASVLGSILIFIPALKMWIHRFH
UniProt P43143: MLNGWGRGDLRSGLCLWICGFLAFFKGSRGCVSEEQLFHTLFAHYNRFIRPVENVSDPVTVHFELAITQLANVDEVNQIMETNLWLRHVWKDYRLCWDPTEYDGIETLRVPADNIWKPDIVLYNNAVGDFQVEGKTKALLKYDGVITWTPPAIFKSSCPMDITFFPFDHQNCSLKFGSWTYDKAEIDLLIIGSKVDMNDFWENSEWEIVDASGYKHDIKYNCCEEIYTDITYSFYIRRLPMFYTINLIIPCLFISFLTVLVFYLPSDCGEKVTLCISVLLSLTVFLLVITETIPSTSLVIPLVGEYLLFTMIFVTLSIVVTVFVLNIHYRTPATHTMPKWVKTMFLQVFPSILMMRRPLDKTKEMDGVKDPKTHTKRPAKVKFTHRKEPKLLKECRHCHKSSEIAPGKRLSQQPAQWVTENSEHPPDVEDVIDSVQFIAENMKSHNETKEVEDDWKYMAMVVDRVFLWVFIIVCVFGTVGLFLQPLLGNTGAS
UniProt P20420: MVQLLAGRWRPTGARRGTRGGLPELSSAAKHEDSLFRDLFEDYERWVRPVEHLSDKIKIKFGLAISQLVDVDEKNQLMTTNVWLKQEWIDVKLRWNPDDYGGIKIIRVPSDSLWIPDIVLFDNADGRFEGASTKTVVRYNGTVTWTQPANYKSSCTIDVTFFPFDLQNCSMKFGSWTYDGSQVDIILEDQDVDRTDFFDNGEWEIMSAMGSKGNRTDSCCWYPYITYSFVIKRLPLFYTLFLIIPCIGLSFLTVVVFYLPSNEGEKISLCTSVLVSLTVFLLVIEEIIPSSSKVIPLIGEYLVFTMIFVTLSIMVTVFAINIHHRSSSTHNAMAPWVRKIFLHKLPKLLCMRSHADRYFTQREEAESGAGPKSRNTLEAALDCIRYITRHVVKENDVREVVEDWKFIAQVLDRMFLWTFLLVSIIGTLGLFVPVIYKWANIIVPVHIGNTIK
UniProt Q05941: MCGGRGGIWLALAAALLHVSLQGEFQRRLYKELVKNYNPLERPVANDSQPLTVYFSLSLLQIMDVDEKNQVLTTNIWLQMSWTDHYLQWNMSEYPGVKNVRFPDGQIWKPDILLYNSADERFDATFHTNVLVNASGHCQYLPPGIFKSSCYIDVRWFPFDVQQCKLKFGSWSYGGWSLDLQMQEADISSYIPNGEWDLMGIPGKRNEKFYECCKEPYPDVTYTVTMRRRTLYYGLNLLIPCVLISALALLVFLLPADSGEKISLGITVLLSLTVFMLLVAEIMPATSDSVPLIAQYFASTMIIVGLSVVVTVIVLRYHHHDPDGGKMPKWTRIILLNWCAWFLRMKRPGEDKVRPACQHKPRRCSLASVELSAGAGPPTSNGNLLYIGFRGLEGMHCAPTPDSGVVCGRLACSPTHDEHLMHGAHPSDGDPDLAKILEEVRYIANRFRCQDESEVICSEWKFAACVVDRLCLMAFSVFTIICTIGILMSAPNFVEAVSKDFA

SMILES	Relative potency [1]	Relative potency [2]
c1cc2c(cn1)C1CCC(CC2)N1 (stereo not drawn)	1	1
CC(=O)C1=CCCC2CCC1N2 (stereo not drawn)	1	1
Cc1nccc2c1C1CCC(CC2)N1 (stereo not drawn)	0.0003	0.014
CN1C2CCc3ccncc3C1CC2 (stereo not drawn)	0.0005	0.0033

— ChEMBL document CHEMBL1124049, “Synthesis and biological characterization of pyridohomotropanes. Structure-activity relationships of conformationally restricted nicotinoids” (J Med Chem, 1988)
